Reference: patent US20050049309A1, “Regulation of HIF protein levels via deubiquitination pathway” (priority 2003, published 2005)

What was measured:
HIF-1α protein = HIF-1α protein levels in cancer cells by Western blotting of nuclear extracts; settings: MCF-7 cells, hypoxia 16 hours with 25 M PX-478, then washed out
[1] = test system: deubiquitinase enzyme activity (HT-29 cell lysate) on polyubiquitinated HIF-1α; assay: In vitro deubiquitination assay with polyubiquitinated HIF-1α and cell lysate; format: biochemical, human; settings: HT-29 lysate incubated 15 min with 5 μM PX-478, the lowest concentration tested
[2] = test system: HT-29 colon tumor xenografts; assay: HT-29 colon tumor xenografts in scid mice, tumor protein levels by Western blotting; settings: HT-29 xenografts in scid mice, 2 hr
HIF-1α = assay: Ubiquitination of HIF-1α in cells (immunoprecipitation and Western blotting); format: cell-based, human; settings: HT-29 cells, 16 hours, normoxic and hypoxic conditions, dose-dependent

With `N[C@@H](Cc1ccc([N+]([O-])(CCCl)CCCl)cc1)C(=O)O` the “Time for HIF-1α protein to return to pre-treatment levels after drug removal” value (HIF-1α protein) was no more than 4 h, the “Deubiquitination of HIF-1α in vitro” value [1] was “prevented the deubiquitination of HIF-1α” and the “Decrease in tumor HIF-1α protein” value ([2]; 100 mg/kg intraperitoneally) was 60%. For the same compound, the “Decrease in tumor VEGF protein” value ([2]; 100 mg/kg intraperitoneally) was 30%, the “Ubiquitination of HIF-1α in tumor” value ([2]; 100 mg/kg) was “markedly increased” and the “Ubiquitination of HIF-1α” value (HIF-1α) was “increased ubiquitination of HIF-1α”.
